Compound potency records, mixed from different reports. Data source: NIAID ChemDB in PubChem.

Common to all: growth or infection tests

Inhibition is in % at the dose shown (toxicity tests: loss of growth or viability). An empty or dashed field is not shown. ECn: concentration that inhibits the pathogen or its effect by n%. A number after MIC or MFC names an inhibition level or a share of isolates. Conditions beyond the fields shown may differ between rows.

smiles	strain	species	dose	endpoint	cells	method	result
C=Cc1cn([C@@H]2O[C@H](CO)[C@@H](O)[C@@H]2O)c(=O)[nH]c1=O	HIRAI	Varicella zoster virus	0.1 µg/mL	inhibition	HELF	plaque count	71%
Nc1ccc(S(=O)(=O)O)cc1	TYPE 3	Adenovirus	5 µg/mL	inhibition	Human embryonic lung cells	cytopathic effect	0%
CCO/N=C/c1ccc(OCCC2CCN(c3ccc(Cl)nn3)CC2)cc1	1794 (ICAM-1 receptor group 40)	Rhinovirus	-	EC50	KB	neutral red	0.003 µM
Oc1cccc(C=Nc2ccccc2O)c1	23/10993	Cryptococcus gattii	-	MIC99	-	-	4 µg/mL
O=S(=O)([O-])c1ccc(O)c2ccccc12	TYPE 3	Adenovirus	50 µg/mL	inhibition	Human embryonic lung cells	cytopathic effect	0%
Nc1nc2c(ncn2COCCO)c(=O)[nH]1	Kawaguchi	Varicella zoster virus	1 µg/mL	inhibition	HELF	plaque count	75%
Nc1c(S(=O)(=O)[O-])cc2cc(S(=O)(=O)[O-])ccc2c1O	TYPE 3	Adenovirus	50 µg/mL	inhibition	Human amnion AV3 cells	cytopathic effect	40%
CCOC(=O)c1c(C)nc(NCCCNc2ccnc3cc(Cl)ccc23)nc1-c1ccccc1	196L/03	Cryptococcus gattii	-	MIC99	-	-	8 µg/mL
C=CCc1ccc(O)c(OC)c1	3261	Candida tropicalis	-	MIC90	-	turbidity	490 µg/mL
O=[N+]([O-])c1ccc(C=Nc2ccccc2O)cc1	ATCC 28957	Cryptococcus neoformans	-	MIC	-	broth dilution	5.7 µg/mL
Nc1ccc2cc([N+](=O)[O-])cc(S(=O)(=O)[O-])c2c1	TYPE 3	Adenovirus	50 µg/mL	inhibition	Human amnion AV3 cells	cytopathic effect	0%
CCc1cn([C@@H]2O[C@H](CO)[C@@H](O)[C@@H]2O)c(=O)[nH]c1=O	YS	Varicella zoster virus	100 µg/mL	inhibition	HELF	plaque count	0%
O=S(=O)(O)c1cccc2c(O)cccc12	-	Herpes simplex virus	5 µg/mL	inhibition	Human amnion AV3 cells	cytopathic effect	0%
O=c1[nH]c(=O)n([C@H]2C[C@H](O)[C@@H](CO)O2)cc1I	HIRAI	Varicella zoster virus	1 µg/mL	inhibition	HELF	plaque count	62%
CCC(CC)O[C@@H]1C=C(C(=O)O)C[C@H](N)[C@H]1NC(C)=O	Memphis/20/96	Influenza B virus	-	EC50	MDCK	plaque count	0.055 µg/mL
O=S(=O)([O-])c1ccc2c(S(=O)(=O)[O-])cc(S(=O)(=O)[O-])cc2c1	TYPE 3	Adenovirus	50 µg/mL	inhibition	Human amnion AV3 cells	cytopathic effect	0%
CCOC(=O)c1cnc(NCCCCNc2ccnc3cc(Cl)ccc23)nc1C	1913 ER	Cryptococcus gattii	-	MIC99	-	-	8 µg/mL
CCOC(=O)/C=C/[C@H](C[C@@H]1CCNC1=O)NC(=O)[C@@H](CC(=O)[C@@H](NC(=O)c1cc(C)on1)C(C)C)Cc1ccc(F)cc1	Isolate 23	Rhinovirus	-	EC50	OHIO HELA-I	cytopathic effect / visual reading	<0.01 µg/mL
O=S(=O)([O-])c1cc(S(=O)(=O)[O-])c2cc(NS(=O)(=O)c3ccccc3)ccc2c1	-	Herpes simplex virus	50 µg/mL	inhibition	Human conjunctiva cells	cytopathic effect	0%
Nc1nc(=O)n([C@@H]2O[C@H](CO)[C@@H](O)[C@@H]2F)cc1I	Kawaguchi	Varicella zoster virus	0.001 µg/mL	inhibition	HELF	plaque count	0%
CC(=O)N[C@H]1[C@H]([C@H](O)[C@H](O)CO)OC(C(=O)O)=C[C@@H]1N=C(N)N	B/Harbin/07.94	Influenza B virus	-	EC50	MDCK	-	0.2 µM
CCOC(=O)c1c(C)nc(NCCCCNc2ccnc3cc(Cl)ccc23)nc1-c1ccccc1	ATCC 24065	Cryptococcus gattii	-	MIC99	-	-	8 µg/mL

The first 2 rows once more:

smiles	strain	species	dose	endpoint	cells	method	result
C=Cc1cn([C@@H]2O[C@H](CO)[C@@H](O)[C@@H]2O)c(=O)[nH]c1=O	HIRAI	Varicella zoster virus	0.1 µg/mL	inhibition	HELF	plaque count	71%
Nc1ccc(S(=O)(=O)O)cc1	TYPE 3	Adenovirus	5 µg/mL	inhibition	Human embryonic lung cells	cytopathic effect	0%